This passage reports OD450 results from patent US20120207760A1, “Compositions and Methods for the Therapy and Diagnosis of Influenza” (THERACLONE SCIENCES, published 2012).

Sequences and labels used below:
B1: TCN-533 (5256_A17) (antibody, V domains shown)
VH: QVQLVQSGADVKKPGSSVTVSCKASGGSFSNYGINWVRQAPGQGLEWMGGIIPLINAPNYAPKFQGRVTITADMFSNIVSLQLTSLRTDDTAVYYCARRKMTTAIDYWGQGTLVTVSS
VL: QPVLSQPPSASASLGASVTLTCTLSSGFDNYQVAWYQQRPGKGPRFVMRVGNGGNVASKGDGIPDRFSVSGSGLNRYLTIKNIQEDDESDYYCGADHGSGNNFVSPYVFGGGTKLTVL
B2: TCN-535 (5246_P19) (antibody, V domains shown)
VH: QVQLVQSGSEVKKPGTSVKVSCTASGSVFTNYGISWVRQAPGQGLEWMGGIIPLFGAAKYAQKFQGRVTITADESTKTVYMELSRLTSKDTAIYFCAKAPRVYEYYFDQWGQGTPVTVSS
VL: EIVLTQSPGTLSLSPGERATLSCRASQSVSSSQLAWYQQKPGQAPRLIIYGASTRATGIPDRFSGSGSGTDFTLTIGRLEPEDFAVFFCQQYSTSPPTFGQGTKVDFK
B3: TCN-536 (5095_N01) (antibody, V domains shown)
VH: QVQLQQWGAGLLKPSETLSLTCAVYGGSFSVSGYYWSWIRQPPGRGLEWIGEISHGGSTNYNPSLKSRVTISVDTTKNQFSLRLSSVTAADTAVYYCARGTDPDTEVYCRVGNCAAFDYWGQGSLVTVSS
VL: EIILAQSPGTLSLSPGERATLSCRASQFVSTRSLAWYQQRPGQAPRLLIYGASSRATGIPDRFSGSGSGTDFTLTISRLEPEDFAVYYCQHYGYSPRYAFGQGSKVEIK
B4: TCN-527 (5086_C06) (antibody, V domains shown)
VH: QVQLQESGPGLVKPSETLSLNCAVSGGSISNYYWSWIRQPPGKGLEWIGYISYNGRPKYNPSLTSRVTISVDTSKDQFSLELRSVTAADTALYYCARETRFGELLSPYDAFEIWGQGTMVTVSS
VL: DIQMTQSPSSLSASVGDRVTMTCRASQNIRSYLNWYQQRPGTAPKLLIYAASTLHSGVPSRFSGGGSGTDFTLTINNLQPEDFASYYCQQSYDNPQTFGQGTKVEIK
B5: TCN-526 (5084_C17) (antibody, V domains shown)
VH: EVLMVESGGGLVQPGGSVRLSCVASGFSFSSHWMTWVRQAPGKGLEWVANIEDDGGDKYYVDSVKGRFIISRDNAKNSVYLQMNSLRAEDTAVYFCARGSGSSDRSDYDPHYYYYLDVWGKGATVTVSS
VL: DIQLTQSPSSLSASVGDRVTITCRASQSISRYLNWYQQKPGKAPKLLLFAASTLLDGVPSRFSGSGSGTDFTLTISSLQPEDFATYYCQRNHSPSWTFGQGTRVEIK
B6: TCN-534 (5249_B02) (antibody, V domains shown)
VH: QVQLVQSGAEVKKPGSSVKVSCRESGGTFNGYTITWVRQAPGQGLEWMGGIIPMMGTVNYAQKLQGRVTITTDYFTKTAYMDLNNLRSEDTAMYYCVKIRYTGQQLLWGQGTLVTVSS
VL: DIQMTQSPSTLSASIGDRVTITCRASQSIASWLAWYQQKPGKAPKLLIYEAVNLESGVPSRFSGSGSGTDFTLTISSLQPDDFATYFCQHYGTISQTFGGGTKVEIK
B7: TCN-528 (5087_P17) (antibody, V domains shown)
VH: QVQLVQSGSEVKKPGASVKVSCKASGYTFTNYDINWIRQAPGQGLEWMGWINPNSGTTGSAQRFQGRVTITVDTSITTVYMELSSLRSDDTAIYYCARGRELLRLQHFLTDSQSERRDCFDPWGQGTLVTVSS
VL: DIQMTQSPSSLSASVGDRVTITCRANQDIGIYLNWYQQNPGKVPKLLLHGASSLQGGVPSRFSASGSGTDFTLTIHSLQPEDLATYYCQQSRRLPYTFGQGTRVELK
B8: TCN-521 (3280_D18) (antibody, V domains shown)
VH: EVQLVQSGGGLVQPGGSLRLACVVSGFTVTSNYITWVRQAPGKGLEWVSVIYSHGRAYYSASVNGRFTISRHTSKNTVYLEMNSLRPEDTAVYYCAGGGLVGGYDEYFFDYWGQGTLATVSS
VL: ETVLTQSPGTLSLTPGERATLSCRVGQSVSGSHLAWYQQKPGQAPRLLIYGASSRATGIPDRFGGSVSGTDFTLTISRLEPEDSAVYYCQQYGDSRYTFGQGTKLEIK
B9: TCN-563 (5237_B21) (antibody, V domains shown)
VH: QVQLAQSGAEVKRPGSSVKVSCTASGGIFRKNAISWVRQAPGQGLEWMGGIIAVFNTANYAQKFQGRVKITADESGNTAYMELSSLRSDDTAVYYCASHPKYFYGSGSYPDFWGQGTLVTVSS
VL: QSALTQPRSVSGSPGQSVTISCTGSSSDVGASNSVSWYQQHPGKAPKLVIYDVTERPSGVPHRFSGSKSGNTASLTVSGLQPEDEADYFCCAYGGKYLVVFGGGTKVTVL
B10: TCN-555 (5246_L16) (antibody, V domains shown)
VH: QVQLVQSGAEVKRPGSSVKVSCTASGGIFRKNAISWVRQAPGQGLEWMGGIIAVFNTANYAQKFQNRVKITADESGNTAYMELSSLTSDDTAVYYCASHPKYFYGSGSYPDFWGQGTLVTVSS
VL: QSALTQPRSVSGSPGQSITISCTGGSSDIGASNSVSWYQQHPGKAPKLVIFDVTERPSGVPHRFSGSKSGNTASLTVSGLQPDDEADYFCCAYGGKYLVVFGGGTKVTVL
B11: TCN-531 (5091_H13) (antibody, V domains shown)
VH: EVQLVESGGDLVQPGRSLKLSCTGSGFTFGDYGVTWVRQAPGKGLEWVGFIRTRPWGGTADTAASVKGRFTISRDDSKSLAYLQMNSLKTEDTAVYYCCRDAPPNVEVASMTNWYFDLWGRGTLVTVSS
VL: DIQLTQSPSSLSASVGDRVTITCRASQGILNCLAWYQQKPGKVPNLLMYAASTLQSGVPSRFSGSGFGTDFTLTISSLQPEDVATYYCQTYGGVSTFGGGTKVEIR
B12: TCN-530 (5248_H10a) (antibody, V domains shown)
VH: QVQLVQSGAEVRKPGSSVKVSCKASGGPFMSYAIGWVRQAPGQGLEWMGGINPVFGRPHYAQKFQGRVTIATDDSTKTSYMELSSLTSEDTGMYYCASRYSRSSPGTFESWGQGTLVTVSS
VL: EIVMTQFPATLSVSPGERVTLSCRASQSVSNNLAWYQQKPGQPPRLLIYDASTRATGVPAKFSGTGSGTEFTLSISSLQSEDFAVYYCQQYHNWPPSYSFGLGTKLEIK
B13: TCN-532 (5262_H18) (antibody, V domains shown)
VH: QVQLQESGPGLVKPSETLSLTCTVSGGSVSSETYYWSWIRQPPGKGLEWIGYIYYIGNTDYRPSLKSRVTISLDTSKNQFSLKLSSVTAADTAVYYCARGAYYDSSGYPAFYIWGQGTMVTVSS
VL: QSVLTQPPSVSGAPGQRVTISCTGSSSNIGSDYDVHWYKQLPGTAPKLLIFGNSNRPSGVPDRFSGSKSGTSASLAITGLQAEDEADYYCQSYDSSLSGFHVFGSGTKVTVL
B14: TCN-523 (5248_A17) (antibody, V domains shown)
VH: QVQLVQSGAEVKKPGSSVKVSCKASGGSFSNYAFSWVRQAPGQGLEWMGGTIPLLGTTNYAQKFQGRVTISADQFTSTAYMELGSLRSEDTAVYYCTRRKMTTAFDSWGQGTLVTVSS
VL: QPVLTQPPSASASLGASVTLTCTLSSAYSNYKVDWYQQRPGKGPRFVMRVGTGGIVGSKGDGIPDRFSVLGSGLNRYLTIKNIQEEDESDYHCGADHGSGSNFVSPYVFGGGTKLTVL
B15: TCN-539 (5056_A08) (antibody, V domains shown)
VH: QVQLVESGGGVVQPGRSLRLSCAASEITFITYAMHWVRQAPGKGLEWVALISDDGSNKFYADSVKGRFTISRDNSKNTLYLQMNSLRAEDTAAYYCAREGVYFDSGTYRGYFDYWGQETLVTVSS
VL: EIVLTQSPATLSLSPGERATLSCRASQSVSSYLAWYQQKPGQAPRLLIYDASNRATGIPARFSGSGSGTDFTLTISSLEPEDFAVYYCQQRSHWPPITFGQGTRLEIK

The assay has as its target Hemagglutinin of influenza A/Wisconsin/67/05 (H3N2), on inactivated whole virions (Influenza A virus A/Wisconsin/67/2005 …). As to the kind of experiment: ELISA, B cell culture supernatant on inactivated whole virions.
B1 had an OD450 of 0.1 OD450. In the case of B2, the OD450 stood at 0.08 OD450. For B3, the OD450 is 3.66 OD450.

In turn, B4 showed an OD450 of 0.07 OD450. In the case of B5 it was 3.65 OD450; in that of B6, 0.07 OD450; in that of B7, 0.24 OD450. On to B8, for which the OD450 worked out at 1.1 OD450.

Regarding B9, the OD450 was 0.07 OD450. Then B10, with 0.06 OD450; and B11, with 3.45 OD450.

With B12, the OD450 was 0.06 OD450. In the case of B13 it was 3.67 OD450. B14: the OD450 is 0.08 OD450.

The molecule B15 gave an OD450 of 2.85 OD450.
